Anti-infective test results gathered from many reports (values: NIAID ChemDB through PubChem).

Common to all: whole-cell or culture tests; agent: Candida tropicalis

Rows are shuffled and stem from different studies. MIC50, MIC90 and the like: level of inhibition, or share of isolates inhibited. ECn is the concentration giving n% inhibition of infection, replication or growth. An empty or dashed field is not shown.

SMILES	strain or isolate	setting	measure	read by	result
O=c1c(O)c(-c2ccc(O)c(O)c2)oc2cc(O)cc(O)c12	ATCC 750		MLC	broth dilution	200 µg/mL
C[C@H](Cc1ccc(O)c(O)c1)[C@@H](C)Cc1ccc(O)c(O)c1	CCC 131-1997		MIC50	broth dilution	125 µg/mL
O=C(Oc1cccc2cccnc12)c1ccccc1			MIC		>100 µg/mL
O=[N+]([O-])c1ccc(C[Se]c2nnnn2C2CCCCC2)c([N+](=O)[O-])c1	156	24 h	EC80	broth dilution	>500 µM
Cc1ccc(O)cc1			MIC	broth dilution	880 µg/mL
O=[N+]([O-])c1cc(CSc2cccc[n+]2[O-])cc([N+](=O)[O-])c1	156	24 h	EC80	broth dilution	>500 µM
c1ccc([Se][Se]c2ccccc2)cc1			MIC	broth dilution	32 µg/mL
C[C@@H]1[C@H](O)[C@@H](C)/C=C/C=C/CC/C=C/C=C/C=C/C=C/C(O[C@H]2O[C@H](C)[C@@H](O)[C@H](N)[C@@H]2O)CC2O[C@](O)(CC(O)C(O)CCC(O)CC(O)CC(O)CC(=O)O[C@H]1C)CC(O)C2C(=O)O	ATCC 40042		MIC100	broth dilution	64 µg/mL
Oc1c(Cl)ccc2cccnc12	ATCC 750	48 h	MIC		6.2 µg/mL
C[C@H]1[C@H](O)[C@@H](C)/C=C/C=C/C=C/C=C/C=C/C=C/C=C/[C@H](O[C@@H]2O[C@H](C)[C@@H](O)[C@H](N)[C@@H]2O)C[C@@H]2O[C@](O)(C[C@@H](O)C[C@@H](O)CC[C@H](O)[C@@H](O)C[C@@H](O)CC(=O)O[C@H]1C)C[C@H](O)[C@H]2C(=O)O	54 isolates		MIC50		1 µg/mL
O=C(O)/C=C/c1ccccc1	PYCC 3097		EC50	broth dilution / turbidity	0.16 µM
Oc1cc(O)c2c(c1)OC(c1ccc(O)c(O)c1)[C@@H](O)C2	Clinical isolate 5		MIC50	broth dilution	>128 µg/mL
C=C(c1ccccc1OCc1cccc(Cl)c1)n1ccnc1	19 isolates		MIC90		8 µg/mL
COc1cccc2ccc[n+](C)c12.[I-]			MIC		>100 µg/mL
O=C(O)c1ccccc1O	PYCC 3097		EC50	broth dilution / turbidity	0.45 µM
C=CCc1ccc(OC)c(OC)c1			MIC	broth dilution	1280 µg/mL
C[C@H]1[C@H](O)[C@@H](C)/C=C/C=C/C=C/C=C/C=C/C=C/C=C/[C@H](O[C@@H]2O[C@H](C)[C@@H](O)[C@H](N)[C@@H]2O)C[C@@H]2O[C@](O)(C[C@@H](O)C[C@@H](O)CC[C@H](O)[C@@H](O)C[C@@H](O)CC(=O)O[C@H]1C)C[C@H](O)[C@H]2C(=O)O	CBS 94		MIC	broth dilution	0.01 µg/mL
COC(=O)[C@]12CCC(C)(C)C=C1C1CCC3[C@@]4(C)CCC(=O)C(C)(C)C4CC[C@@]3(C)[C@]1(C)CC2	ATCC 750		MIC	broth dilution	100 µg/mL
Nc1[nH]c(=O)ncc1F	19 isolates		MIC90		0.12 µg/mL
CN(C/C=C/C#CC(C)(C)C)Cc1cccc2ccccc12	17 clinical isolates		MIC90	broth dilution	>16 µg/mL
O=c1cc(-c2ccccc2)oc2cc(O)c(O)c(O)c12	170.06		MIC		2.6 µg/mL
Oc1ccc(Cl)c2cccnc12	ATCC 750	48 h	MIC		6.2 µg/mL
CC(=O)N1CCN(c2ccc(OC[C@H]3CO[C@](Cn4ccnc4)(c4ccc(Cl)cc4Cl)O3)cc2)CC1	19 isolates		MIC90		8 µg/mL
Cc1c(OCC(F)(F)F)ccnc1CS(=O)c1nc2ccccc2[nH]1	Clinical isolates		MIC		>128 µg/mL
C[C@@H](c1ncncc1F)[C@](O)(Cn1cncn1)c1ccc(F)cc1F	17 clinical isolates		MIC50	broth dilution	≤0.031 µg/mL
O=[N+]([O-])c1cc(CSc2nnnn2-c2ccc(Cl)c(Cl)c2)cc([N+](=O)[O-])c1	156	24 h	EC80	broth dilution	>125 µM
CN(C/C=C/C#CC(C)(C)C)Cc1cccc2ccccc12	27 strains		MIC		11.89 µg/mL
COc1cc(O)c2c(c1)C(=O)c1c(cc3c(c1O)-c1c(cc(C)c(C(=O)NC(CO)C(=O)O)c1O)[C@H](OC1OC(C)C(O)C(OC4OCC(O)C(O)C4O)C1O)C3O)C2=O	Kitasato 85-8		MIC		12.5 µg/mL
O=[N+]([O-])c1cc(C[Se]c2nnnn2Cc2ccccc2)cc([N+](=O)[O-])c1	156	48 h	EC80	broth dilution	>500 µM
C[C@@H](c1ncncc1F)[C@](O)(Cn1cncn1)c1ccc(F)cc1F	54 isolates		MIC90		0.125 µg/mL
O=[N+]([O-])c1cc(C[Se]c2nnnn2C2CCCCC2)cc([N+](=O)[O-])c1	156	48 h	EC80	broth dilution	>500 µM
COC(=O)c1cc(O)c(O)c(O)c1	ATCC 750		MIC	broth dilution	50 µg/mL
Clc1ccc(COC(Cn2ccnc2)c2ccc(Cl)cc2Cl)cc1	19 isolates		MIC90		8 µg/mL
O=Cc1cccc(O)c1O	PYCC 3097		EC50	broth dilution / turbidity	0.06 µM
Cc1ccccc1O			MIC	broth dilution	1050 µg/mL
O=[N+]([O-])c1cc(CSc2nnnn2C2CCCCC2)cc([N+](=O)[O-])c1	156	48 h	EC80	broth dilution	>500 µM
Oc1cc(Cl)cc2cccnc12	ATCC 750	24 h	MIC		6.2 µg/mL
c1ccc(COc2cccc3cccnc23)cc1			MIC		75 µg/mL
COc1ccccc1O			MIC	broth dilution	10 µg/mL
O=[N+]([O-])c1cc(CSc2nnnn2Cc2ccccc2)cc([N+](=O)[O-])c1	156	48 h	EC80	broth dilution	>500 µM
CCOc1cccc2ccc[n+](CC)c12.[I-]			MIC		>100 µg/mL

For reference, 2 entries again:

SMILES,strain or isolate,setting,measure,read by,result
O=[N+]([O-])c1cc(CSc2nnnn2C2CCCCC2)cc([N+](=O)[O-])c1,156,48 h,EC80,broth dilution,>500 µM
Oc1cc(O)c2c(c1)OC(c1ccc(O)c(O)c1)[C@@H](O)C2,Clinical isolate 5,,MIC50,broth dilution,>128 µg/mL